In patent publication US20250367282A1, “POLYCATION CARRIER PARTICLE” (ALLARTA LIFE SCIENCE INC., priority 2022, published 2025):

Assay: Hydrolysis of DXL monitored by 1H NMR

With `C=CC(=O)OCCN(C)CCOC(=O)C=C` the “DXL hydrolyzed (hydrolysis of one of the ester groups)” value (100 mM phosphate buffered D2O, pH 7.3, room temperature (22° C.), after 1 day) was “about 31%”, the “pseudo first-order rate constant (k) of ester hydrolysis” value (one ester group, phosphate buffered D2O, pH 7.3, 22° C.) was 0.0151 h⁻¹ and the “hydrolysis rate relative to PDMAEA (times faster)” value (versus PDMAEA at pH 7) was “about 1.8 times”.
